Measurements taken from US20040191887A1 (WISCONSIN ALUMNI RESEARCH FOUNDATION, published 2004).

Biological target: botulinum neurotoxin B (Clostridium botulinum, UniProt P10844 2-441; P10844 442-1291)
Assay: GST pull-down with gangliosides, immunoblot (FIG. 2A)

B1: GST-syt II 61-267 (receptor)
chain: IPLPPWALIAMAVVAGLLLLTCCFCICKKCCCKKKKNKKEKGKGMKNAMNMKDMKGGQDDDDAETGLTEGEGEGEEEKEPENLGKLQFSLDYDFQANQLTVGVLQAAELPALDMGGTSDPYVKVFLLPDKKKKYETKVHRKTLNPAFNETFTFKVPYQELAGKTLVMAIYDFDRFSKHDIIGEVKVPMNTVDLGQPIEEWRDLQGGE
binding result: no binding
